Measured values from several laboratories, pooled; numbers as filed in NIAID ChemDB.

All rows: whole-cell or culture tests; agent: Cryptococcus neoformans

A number after MIC or MFC names an inhibition level or a share of isolates. An empty or dashed field is not shown. Lines come from different laboratories, so protocols vary.

structure,read by,measure,strain or isolate,value
CCC(C)CCCCCCC1CC(=O)NCC(=O)N[C@@H](CCCN)C(=O)N[C@@H](C(C)C)C(=O)N1,-,MIC,TIMM0354,1.25 µg/mL
C[C@@H](N1CCN(c2ccc(F)cc2)C1=O)C(O)(Cn1cncn1)c1ccc(F)cc1F,-,MIC,TIMM1740,0.13 µg/mL
CCC(C)CC(C)CCCCCCCCC(=O)N[C@H]1C[C@@H](O)[C@H](NCCN)NC(=O)[C@@H]2[C@@H](O)CCN2C(=O)[C@H]([C@H](O)CCN)NC(=O)[C@H]([C@H](O)[C@@H](O)c2ccc(O)cc2)NC(=O)[C@@H]2C[C@@H](O)CN2C(=O)[C@H]([C@@H](C)O)NC1=O,-,MIC50,10 strains,>16 µg/mL
CC(C)C(CCC(C)C1CC[C@@]2(C)C3=C(CCC12C)C1(C)CC[C@H](O)C(C)(C)C1CC3)N=[N+]=[N-],-,MIC90,A.34144,25 µg/mL
C[C@H]1[C@H](O)[C@@H](C)/C=C/C=C/C=C/C=C/C=C/C=C/C=C/[C@H](O[C@@H]2O[C@H](C)[C@@H](O)[C@H](N)[C@@H]2O)C[C@@H]2O[C@](O)(C[C@@H](O)C[C@@H](O)CC[C@H](O)[C@@H](O)C[C@@H](O)CC(=O)O[C@H]1C)C[C@H](O)[C@H]2C(=O)O,broth dilution / absorbance,MIC99,Clinical isolate,<0.195 µM
CCCCCCCCCCC[C@H]1NC(=O)[C@H](CC(C)(C)C)NC(=O)[C@H](CCCCN)NC(=O)CNC(=O)[C@@H]1C,-,MIC,-,8 µg/mL
CC1(C)C(O)CC[C@@]2(C)C1CC[C@]1(C)C2[C@H](O)C=C2C3C[C@@](C)(C(=O)O)CC[C@]3(C)CC[C@]21C,absorbance,MIC,-,47 µg/mL
CCC(=O)N1CCC(n2cc(CN3CCc4sccc4C3)nn2)CC1,agar,MIC,NCIM576,>200 µg/mL
CCCCCCCCCC[C@@H]1CC(=O)NCC(=O)N[C@@H](CCCCN)C(=O)N[C@@H](CC(C)(C)C)C(=O)N1,-,MIC,-,4 µg/mL
CCCCCOc1ccc(-c2ccc(-c3ccc(C(=O)N[C@H]4C[C@@H](O)[C@@H](O)NC(=O)[C@@H]5[C@@H](O)[C@@H](C)CN5C(=O)[C@H]([C@H](C)O)NC(=O)[C@H]([C@H](O)[C@@H](O)c5ccc(O)cc5)NC(=O)[C@@H]5C[C@@H](O)CN5C(=O)[C@H]([C@H](C)O)NC4=O)cc3)cc2)cc1,-,MIC50,15 strains,>8 µg/mL
C[C@@H](n1ccn(-c2ccc(F)cc2)c1=O)C(O)(Cn1cncn1)c1ccc(F)cc1F,-,MIC,TIMM1855,0.5 µg/mL
Clc1ccc(COC(Cn2ccnc2)c2ccc(Cl)cc2Cl)c(Cl)c1,-,MIC,-,0.3 µg/mL
CCCCCCCCC[C@H]1NC(=O)[C@H](CC(C)(C)C)NC(=O)[C@H](CCCN)NC(=O)CNC(=O)C1(F)F,-,MIC,-,8 µg/mL
CN[C@H]1CC[C@@H](c2ccc(Cl)c(Cl)c2)c2ccccc21,broth dilution,MFC,Bt31,8 µg/mL
C[C@@H](n1ncn(-c2ccc(OCC(F)(F)C(F)F)cc2)c1=O)[C@](O)(Cn1cncn1)c1ccc(F)cc1F,-,MIC,TIMM1740,0.13 µg/mL
Cc1ccc2nnc3c4ccccc4[nH]c3c2c1,-,MIC,-,>200 µM
CCCCCCCCCC[C@@H]1NC(=O)[C@H](CC(C)(C)C)NC(=O)[C@H](CCCCN)NC(=O)CNC(=O)[C@H]1O,-,MIC,-,8 µg/mL
CC(=O)N1CCC(n2cc(CN3CCc4sccc4C3)nn2)CC1,agar,MIC,NCIM576,>200 µg/mL
Clc1ccc2nnc3c4ccccc4[nH]c3c2c1,-,MIC,-,6.2 µM
C[C@@H](N1CCN(c2ccc(C(F)(F)F)cc2)C1=O)C(O)(Cn1cncn1)c1ccc(F)cc1F,-,MIC,TIMM1855,0.03 µg/mL
CN=[N+]([O-])CC[C@H](N)C(=O)O,-,MIC80,MTU 13001,>200 µg/mL
N#Cc1c(Cl)nc(SCc2ccc(Cl)cc2)nc1-c1cccs1,-,MIC,-,>100 µg/mL
Clc1ccc2c(c1)nnc1c3ccccc3[nH]c21,-,MIC,-,0.1 µM
CCNC(CCC(C)C1CC[C@@]2(C)C3=C(CCC12C)C1(C)CC[C@H](O)C(C)(C)C1CC3)C(C)C,-,MIC90,A.34144,25 µg/mL
CC[C@@H]([C@H](C)O)n1ncn(-c2ccc(N3CCN(c4ccc(OC[C@@H]5CO[C@@](Cn6cncn6)(c6ccc(F)cc6F)C5)cc4)CC3)cc2)c1=O,-,MIC,486 (HIV+),1 µg/mL
C[C@@H](N1CCN(c2ccc(OC(F)(F)F)cc2)C1=O)C(O)(Cn1cncn1)c1ccc(F)cc1F,-,MIC,TIMM1855,0.06 µg/mL
CCCSc1nc(Cl)c(C#N)c(-c2cccs2)n1,-,MIC,-,>100 µg/mL
CCCCC/C=C/C=C/C(O)C/C=C/C=C/C(=O)OC1C(O)C(c2c(O)cc(O)cc2CO)OC(CO)C1OC1OC(C(O)COC(=O)/C=C/C=C\CCC(O)CC)C(O)C1O,-,MIC,CR-1,>100 µg/mL
CC(C)C(N)CCC(C)C1CC[C@@]2(C)C3=C(CCC12C)C1(C)CC[C@H](O)C(C)(C)C1CC3,-,MIC90,B42419,0.78 µg/mL

A second listing of 2 rows from above:

{"structure": "C[C@@H](n1ncn(-c2ccc(OCC(F)(F)C(F)F)cc2)c1=O)[C@](O)(Cn1cncn1)c1ccc(F)cc1F", "measure": "MIC", "strain or isolate": "TIMM1740", "value": "0.13 µg/mL"}
{"structure": "CC[C@@H]([C@H](C)O)n1ncn(-c2ccc(N3CCN(c4ccc(OC[C@@H]5CO[C@@](Cn6cncn6)(c6ccc(F)cc6F)C5)cc4)CC3)cc2)c1=O", "measure": "MIC", "strain or isolate": "486 (HIV+)", "value": "1 µg/mL"}